# Data: the supplement of paper PMC9931576
# Human monoclonal antibodies against the spike receptor-binding domain (heavy:light variable regions). IC50 against pseudoviruses bearing the spike of naturally observed variants; lower = stronger; >10 µg/ml means not reached at the top dose. No active / inactive call. The stated detection limit is 0.0005 µg/ml; values near or below 0.001 µg/ml lie at the floor of the assay.
# B1: BD55-6283 (protein)
# chain 1: QVQLVQSGAEVRKPGSSVKVSCKTSGGTFSTSAIHWVRQAPGQGPEWMGGIVPMFRSVDYAQKFQGRVTISADESTRTVYMELRSLRSEDTAVYYCAKDYEDSREYSGYDWTVSTWFYPWGQGTLVTVSS
# chain 2: DIVMTQSPDSLAVSLGERATINCKSSRSVLYGSNNKNYLAWYQQRPGHPPKLLIYWASTRESGVPDRFSGSGSGTDFALTISSLQADDVAVYYCQQYYSPPPTFGQGTKLEIK
# B2: BD55-6301 (protein)
# chain 1: QVQLVESGGGVVQPGRSLRLSCAASGFTFSTYGMHWVRQTPGKGLEWVSIISSDGSGKFYSDSVKGRFTISRDNSKNTLYLQMNSLRAEDTGLYYCAKDAPSSSRDSFPDDWGQGTLVTVSS
# chain 2: DIQMTQSPSSLSASVGDRVTITCRASQYITNYLNWYQQKPGKAPKLLIYAASTLRSGVPSRFSGSGSGTDFTLTINSLQPDDFATYYCLQSYTTPLTFGGGTKVEIK
# B3: BD55-6286 (protein)
# chain 1: QVQLVQSGAEVKKPGASVKVSCKASGNSFTNNDINWVRQATGQGPEWMGWMNPDSGNTGYAHKFQGRVTMTRNTSIRTAYMELSSLTSEDTAVYYCASARARYSHGDFDNWGQGTLVTVSS
# chain 2: DIQMTQSPSSLSASVGDRVTLTCRASQSISTYLNWYQKKPGKAPRLLIYAASSLQSGVPSRFSGSGSGTDFTLTISSLQPEDFATYYCQQSYSTGYNFGQGTNLEIK
# B4: BD55-6319 (protein)
# chain 1: EVQLVESGGGLVKPGGSLRLSCAASGFIFRSYSMNWVRQAPGKGLEWVSSISKSGDLKFYVDSVKGRFTISRDNAKNSLFLQMNNLRDDDRAIYYCVRDSPRGSDPVTGYSPDAFDVWGQGTMVTVSS
# chain 2: DIQMTQSPSSLSASVGDRVTITCRAAQSISSYLNWYQQKPGKAPKLLIYTASTLESGVPSRFSGTGSGTDFTLTISSLQPEDFATYYCQQTYVTPVYTFGQGTKLEVK
# B5: BD55-6305 (protein)
# chain 1: VHLVQSGAEVKKPGSSVKVSCKASGGTLSSNAFSWVRQAPGQGLEWMGRIIPMYDKTHTAQKFQGRVTITADKSTSTAYMELSGLRSEDTAVYYCARDLVLAQRGYSGYDLFDVDAFDIWGQGTMVTVSS
# chain 2: QIVLTQSPGTLSLSPGERATLSCRASQSVSSNYLAWYQQKPGQAPRLLISGASSRATGIPDRFSGSGSGTDFTLTISRLEPEDFAVYYCQQYGSSPVTFGGGTKVESK
# B6: BD55-6307 (protein)
# chain 1: QVQLVQSGAEVKKPGASVKVSCKASGYTFTNYGISWVRQAPGQGLECMGWISAHNGNTDYTQKFQSRVTMTTDTSTSTAYMELRSLRSDDTAVYYCVRDRWTYFYESSGQGLFDYWGQGTLVIVSS
# chain 2: DVVMTQSPLSLPVTLGQPASISCRSSQSLVYSDGNTYLNWFQQRPGQPPRRLLYMVSNRDSGVPDRFSGSGSGTAFTLKISRVEAEDVGIYYCMQGTNWPRTFGQGTKVEIK
# Molecular target: SARS-CoV-2 Omicron BA.1 spike pseudovirus
# Test: pseudovirus neutralization IC50; higher = weaker neutralization
# Experimental: (§1)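 Single-round VSV luciferase pseudovirus mixed with antibody dilutions for 1 h and put on Huh-7 cells for about a day; IC50 from the dose curve.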
row,Binder,pseudovirus neutralization IC50
1,B1,2.42 µg/mL
2,B2,> 10 µg/mL
3,B3,> 10 µg/mL
4,B4,> 10 µg/mL
5,B5,0.1 µg/mL
6,B6,> 10 µg/mL

# Molecular target: SARS-CoV-2 Omicron BA.2 spike pseudovirus
# Test: as above
# Experimental: as §1
row,Binder,pseudovirus neutralization IC50
1,B1,> 10 µg/mL
2,B2,> 10 µg/mL
3,B3,> 10 µg/mL
4,B4,> 10 µg/mL
5,B5,> 10 µg/mL
6,B6,> 10 µg/mL

# Molecular target: SARS-CoV-2 Omicron BA.2.75 spike pseudovirus
# Test: as above
# Experimental: as §1
row,Binder,pseudovirus neutralization IC50
1,B1,> 10 µg/mL
2,B2,> 10 µg/mL
3,B3,> 10 µg/mL
4,B4,> 10 µg/mL
5,B5,> 10 µg/mL
6,B6,> 10 µg/mL

# Molecular target: SARS-CoV-2 Omicron BA.5 spike pseudovirus
# Test: as above
# Experimental: as §1
row,Binder,pseudovirus neutralization IC50
1,B1,> 10 µg/mL
2,B2,> 10 µg/mL
3,B3,> 10 µg/mL
4,B4,> 10 µg/mL
5,B5,> 10 µg/mL
6,B6,> 10 µg/mL

# Molecular target: SARS-CoV-2 Omicron BQ.1.1 spike pseudovirus
# Test: as above
# Experimental: as §1
row,Binder,pseudovirus neutralization IC50
1,B1,> 10 µg/mL
2,B2,> 10 µg/mL
3,B3,> 10 µg/mL
4,B4,> 10 µg/mL
5,B5,> 10 µg/mL
6,B6,> 10 µg/mL

# Molecular target: SARS-CoV-2 Omicron XBB spike pseudovirus
# Test: as above
# Experimental: as §1
row,Binder,pseudovirus neutralization IC50
1,B1,> 10 µg/mL
2,B2,> 10 µg/mL
3,B3,> 10 µg/mL
4,B4,> 10 µg/mL
5,B5,> 10 µg/mL
6,B6,> 10 µg/mL

# Molecular target: SARS-CoV-2 early D614G spike pseudovirus
# Test: as above
# Experimental: as §1
row,Binder,pseudovirus neutralization IC50
1,B1,0.148 µg/mL
2,B2,7.99 µg/mL
3,B3,> 10 µg/mL
4,B4,> 10 µg/mL
5,B5,0.0524 µg/mL
6,B6,> 10 µg/mL
